Anti-infective test results gathered from many reports (values: NIAID ChemDB through PubChem).

All rows: whole-cell or culture tests; organism: HIV-1

ECn is the concentration giving n% inhibition of infection, replication or growth. a–b is a range or a potency band. An empty or dashed field is not shown. Lines come from different laboratories, so protocols vary.

| compound | read by | mutations | strain or isolate | cells | read-out | value |
|---|---|---|---|---|---|---|
| Nc1ncnc2c1ncn2[C@H]1CC[C@H](CO)S1 | cytopathic effect / MTT |  | IIIB | MT-2 | EC50 | >100 µM |
| Nc1ccn(/C=C\P(=O)(O)O)c(=O)n1 |  |  | IIIB | CEM + CEM-SS | EC50 | >200 µM |
| Cc1cn([C@@H]2OC3(COP4(=O)OCc5ccccc5O4)CO[C@@H]2[C@@H]3N=[N+]=[N-])c(=O)[nH]c1=O | antigen |  | IIIB | MT-4 | EC50 | >300 µM |
| Nc1ccn(/C=C/P(=O)(O)O)c(=O)n1 |  |  | IIIB | CEM + CEM-SS | EC50 | >200 µM |
| Cc1cc(C#N)cc(C(=O)c2cc(Cl)ccc2OCC(=O)Nc2ccc(S(N)(=O)=O)cc2C)c1 | β-galactosidase |  | HXB2 | HeLa + HeLa-MAGI | EC50 | 0.0005 µM |
| CCCc1cc(=O)oc2c3c(c4c(c12)OC(C)(C)C=C4)O[C@H](C)[C@@H](C)[C@@H]3O | XTT | RT-Y181C | NL4-3 | CEM + CEM-SS | EC50 | 0.02 µM |
| Nc1nc(NC2CC2)c2ncn([C@H]3C=C[C@@H](CO)C3)c2n1 | p24 |  | NL4-3 WT | MT-2 | EC50 | 0.018 µM |
| CCCc1cc(=O)oc2c3c(c4c(c12)OC(C)(C)C=C4)O[C@@H](C)[C@H](C)[C@@H]3O | XTT |  | IIIB | CEM + CEM-SS | EC50 | 0.1 µM |
| Cc1ccnc2c1NC(=O)c1cccnc1N2C1CC1 | β-galactosidase |  | HXB2 | HeLa + HeLa-MAGI | EC50 | 0.088 µM |
| CC(C)=CCOc1cc(NC(=S)c2ccsc2C)ccc1Cl | XTT | RT-T139I | Calanolide A-resistant (RT T139I) | CEM + CEM-SS | EC50 | 0.03 µM |
| COc1cc(OC)cc(C(=O)c2cc(Cl)ccc2OCC(=O)Nc2ccc(S(N)(=O)=O)cc2C)c1 | β-galactosidase |  | HXB2 | HeLa + HeLa-MAGI | EC50 | 0.016 µM |
| CCN(C(=O)NC)C1CCN(CCC(CN(C)S(=O)(=O)c2ccccc2)c2ccccc2)CC1 | p24 |  | YU2 | PBMC | EC50 | <0.12 µM |
| Cc1ccnc2c1NC(=O)c1cccnc1N2C1CC1 | XTT |  | SK1 | CEM + CEM-SS | EC50 | 0.2 µM |
| Cc1cc(C)cc(C(=O)c2cc(Cl)ccc2OCC(=O)Nc2ccc(S(N)(=O)=O)cc2C)c1 | β-galactosidase |  | HXB2 | HeLa + HeLa-MAGI | EC50 | 0.0004 µM |
| COC(=O)C(C)NP(=O)(OCC12CO[C@H](C1)[C@H](n1cc(C)c(=O)[nH]c1=O)O2)Oc1ccccc1 | antigen |  | IIIB | MT-4 | EC50 | >300 µM |
| CC(C)[C@H](NC(=O)OC(C)(C)C)C(=O)N[C@@H](Cc1ccccc1)[C@H]1OP(c2ccccc2)(c2ccccc2)(c2ccccc2)O[C@@H]1[C@H](Cc1ccccc1)NC(=O)[C@@H](NC(=O)OC(C)(C)C)C(C)C |  |  | RF | MT-2 | EC90 | 50 µg/mL |
| CC[C@H](C)[C@H](NC(=O)[C@H](Cc1ccccc1)C[C@H](O)[C@H](Cc1ccccc1)NC(=O)OC(C)(C)C)C(=O)NCc1nc2ccccc2[nH]1 | antigen |  | IIIB | H9 | EC50 | <0.2 µM |
| C=CCN(C(=O)OCc1ccc([N+](=O)[O-])cc1)C1CCN(CC[C@H](CN(C)S(=O)(=O)c2ccccc2)c2ccccc2)CC1 | p24 |  | YU2 | PBMC | EC95 | 0.2 µM |
| Nc1ncnc2c1ncn2[C@@H]1CC[C@H](CO)O1 | cytopathic effect / MTT |  | IIIB | MT-2 | EC50 | >100 µM |
| Cc1cc(C#N)cc(C)c1Oc1nc(Nc2ccc(C#N)cc2)nc(N)c1Br | MTT | L100I |  | MT-4 | EC50 | 0.006 µM |
| CCCN(C(=O)NCc1ccccc1)C1CCN(CCC(CN(C)S(=O)(=O)c2ccccc2)c2ccccc2)CC1 | p24 |  | YU2 | PBMC | EC95 | 3 µM |
| CC(C)C[C@H](NC(=O)[C@H](C/C=C/c1ccccc1)C[C@H](O)[C@H](Cc1ccccc1)NC(=O)OC(C)(C)C)C(=O)N[C@@H](Cc1ccccc1)C(N)=O | antigen |  | IIIB | H9 | EC50 | <6 µM |
| Cc1nc(S(N)(=O)=O)ccc1NC(=O)COc1ccc(Cl)cc1C(=O)c1cc(Cl)cc(C#N)c1 | β-galactosidase |  | HXB2 | HeLa + HeLa-MAGI | EC50 | 0.001 µM |
| CC(/C=C/C(=O)NO)=C\[C@@H](C)C(=O)c1ccc(N(C)C)cc1 | p24 |  | RF | H9 | EC50 | 0.18 µM |
| Cc1cc(N2CCS(=O)CC2)ccc1NC(=O)COc1ccc(Cl)cc1C(=O)c1cccc(C#N)c1 | β-galactosidase |  | HXB2 | HeLa + HeLa-MAGI | EC50 | 0.004 µM |
| O=c1[nH]cnc2c1ncn2[C@H]1CC[C@@H](CO)O1 | p24 | RT-delta67 T69G |  | MT-2 | EC50 | 0.256 µM |
| O=c1[nH]c(=O)n(/C=C\P(=O)(O)O)cc1CO |  |  | IIIB | CEM + CEM-SS | EC50 | >200 µM |
| C=CCN(C(=O)Cc1ccc([N+](=O)[O-])cc1)C1CCN(CCC(CN(C)S(=O)(=O)c2ccccc2)c2ccccc2)CC1 | p24 |  | YU2 | PBMC | EC95 | 0.05 µM |
| CC[C@H](C)[C@H](NC(=O)[C@H](Cc1ccccc1)C[C@H](O)[C@H](Cc1ccccc1)NC(=O)OC(C)(C)C)C(=O)NCC(O)CO | antigen |  | IIIB | H9 | EC50 | <1.5 µM |
| COC(=O)N(CC1CCCCC1)C1CCN(CCC(CN(C)S(=O)(=O)c2ccccc2)c2ccccc2)CC1 | p24 |  | YU2 | PBMC | EC95 | 25 µM |
| Cc1cc(S(N)(=O)=O)ccc1NC(=O)COc1ccc(Cl)cc1C(=O)c1cccc(C#N)c1 | cytopathic effect / MTS | RT-Y181C | Nevirapine-resistant | MT-4 | EC50 | 0.002 µM |
| CC[C@]1(c2ccccc2)Oc2cccnc2-n2cccc2C1=O |  |  | IIIB | Macrophage + Macrophages | EC50 | 0.57 µM |
| Cc1cc(S(N)(=O)=O)ncc1NC(=O)COc1ccc(Cl)cc1C(=O)c1cc(Cl)cc(C#N)c1 | β-galactosidase |  | HXB2 | HeLa + HeLa-MAGI | EC50 | 0.002 µM |
| [N-]=[N+]=N[C@H]1[C@H]2OC[C@]1(CO)O[C@H]2n1cnc2c(N)ncnc21 | antigen |  | IIIB | MT-4 | EC50 | >300 µM |
| Cc1cc(N2CCS(=O)CC2)ccc1NC(=O)COc1ccc(Cl)cc1C(=O)c1ccccc1C#N | β-galactosidase |  | HXB2 | HeLa + HeLa-MAGI | EC50 | 1.5 µM |
| Nc1nc2c(ncn2[C@@H]2CC[C@H](CO)O2)c(=O)[nH]1 | cytopathic effect / MTT |  | IIIB | MT-2 | EC50 | >100 µM |
| CC[C@H](C)[C@H](NC(=O)Cc1ccccn1)C(=O)N[C@@H](Cc1ccccc1)[C@@H](O)[C@H](O)[C@H](Cc1ccccc1)NC(=O)[C@@H](NC(=O)Cc1ccccn1)[C@@H](C)CC | plaque count / virus yield |  | RF | MT-2 | EC90 | 0.38 µg/mL |
| Cc1cn([C@H]2C[C@H](N=[N+]=[N-])[C@@H](CO)O2)c(=O)[nH]c1=O | RT activity |  | CLADE C | PBMC | EC50 | 0.007 µM |
| Nc1ncnc2c1ncn2/C=C/P(=O)(O)O |  |  | IIIB | CEM + CEM-SS | EC50 | >200 µM |
| Cc1cc(SC2=C(O)C[C@@](CCc3ccc(N)cc3)(C(C)C)OC2=O)c(C(C)(C)C)cc1CO |  |  |  | PBMC | EC50 | 0.2–0.5 µM |
| Nc1nc(Cl)nc2c1ncn2[C@H]1CC[C@H](CO)O1 | cytopathic effect / MTT |  | IIIB | MT-2 | EC50 | >100 µM |
| Cc1cn([C@@H]2OC3(COP4(=O)OCc5ccccc5O4)CO[C@@H]2C3)c(=O)[nH]c1=O | antigen |  | IIIB | MT-4 | EC50 | >300 µM |
| CCOP(=O)(/C=C\n1cc(I)c(=O)[nH]c1=O)OCC |  |  | IIIB | CEM + CEM-SS | EC50 | >200 µM |
| Nc1nc(N)c2ncn([C@@H]3CC[C@H](CO)O3)c2n1 | cytopathic effect / MTT |  | IIIB | MT-2 | EC50 | >100 µM |

For reference, 5 entries again:

Cc1ccnc2c1NC(=O)c1cccnc1N2C1CC1 ; read by: XTT ; strain or isolate: SK1 ; cells: CEM + CEM-SS ; read-out: EC50 ; value: 0.2 µM
O=c1[nH]cnc2c1ncn2[C@H]1CC[C@@H](CO)O1 ; read by: p24 ; mutations: RT-delta67 T69G ; cells: MT-2 ; read-out: EC50 ; value: 0.256 µM
CC(C)=CCOc1cc(NC(=S)c2ccsc2C)ccc1Cl ; read by: XTT ; mutations: RT-T139I ; strain or isolate: Calanolide A-resistant (RT T139I) ; cells: CEM + CEM-SS ; read-out: EC50 ; value: 0.03 µM
Cc1cn([C@@H]2OC3(COP4(=O)OCc5ccccc5O4)CO[C@@H]2[C@@H]3N=[N+]=[N-])c(=O)[nH]c1=O ; read by: antigen ; strain or isolate: IIIB ; cells: MT-4 ; read-out: EC50 ; value: >300 µM
O=c1[nH]c(=O)n(/C=C\P(=O)(O)O)cc1CO ; strain or isolate: IIIB ; cells: CEM + CEM-SS ; read-out: EC50 ; value: >200 µM